Pooled drug test results. Numbers come from NIAID ChemDB, via PubChem.

Common to all: host cell toxicity; cell line: MT-4; method: MTT; measure: CC50

CCn: concentration that lowers growth or viability of the cells by n%. Conditions beyond the fields shown may differ between rows.

| smiles | result |
|---|---|
| CSCCC(NC(=S)NC(=O)CCCN1C(=O)c2ccccc2C1=O)C(=O)O | 78.22 µM |
| Cn1c2ccccc2c2c1cc(C#N)c(=O)n2-c1ccc([N+](=O)[O-])cc1 | >32 µM |
| Cc1cc(C)cc(C(=O)c2c(C(C)C)c(=O)[nH]c(=O)n2Cc2cc(C(F)(F)F)cc(C(F)(F)F)c2)c1 | 8.4 µg/mL |
| CCOC(=O)CNc1nc(Nc2cccc(C)c2)nc(Oc2cc(=O)oc3ccccc23)n1 | 65.28 µg/mL |
| O=C(Cc1ccccn1)NNC(=S)Nc1ccc(F)c(Cl)c1 | >100 µM |
| O=C1CS/C(=N\c2nc3ccccc3s2)N1c1cccc(C(F)(F)F)c1 | 67 µM |
| COC(=O)/C=C1\S/C(=N/N=C/c2ccc(OCc3ccccc3)cc2)NC1=O | 97.45 µM |
| Cc1cc(C)cc(Sc2c(C(C)C)c(=O)[nH]c(=O)n2Cc2nc3ccccc3o2)c1 | >100 µg/mL |
| Cc1cc(C(C)(O)c2ccc(F)cc2)nc(Nc2ccc(C#N)cc2)n1 | 61.5 µM |
| O=C1Nc2ccc(F)cc2[C@@]12C[C@@H]2c1ccccc1 | 10.85 µg/mL |
| CCc1c(C(=O)c2cc(F)cc(F)c2)n(Cc2cc(C)nc(C)c2)c(=O)[nH]c1=O | 37.5 µg/mL |
| COC(=O)C1CCCN1C(=O)CCCN1C(=O)c2ccccc2C1=O | 101.9 µM |
| COC(=O)/C=C1\S/C(=N/N=C/c2c(F)cccc2Cl)NC1=O | 52.7 µM |
| Cc1cc(Cl)cc(C(=O)c2c(C(C)C)c(=O)[nH]c(=O)n2Cc2ccncc2)c1 | 55.07 µg/mL |
| COc1cc2nc(S(=O)CC(=O)Nc3cccc(C#N)c3)nc(Nc3c(Cl)cc(/C=C/C#N)cc3Cl)c2cc1OC | >70.3 µM |
| CCOC(=O)CNc1nc(NC(=O)Nc2ccccc2)nc(Oc2cc(=O)oc3ccccc23)n1 | >125 µg/mL |
| Cc1cc(C)cc(Sc2c(C(C)C)c(=O)[nH]c(=O)n2Cc2ccccc2C#N)c1 | >100 µg/mL |
| S=C(Nc1nc2ccccc2s1)NC1CC2CCC1C2 | 46 µM |
| Cc1cc(Cn2c(C(=O)c3cc(F)cc(F)c3)c(C(C)C)c(=O)[nH]c2=O)cc(C)n1 | 87.2 µg/mL |
| CCOC(=O)CNc1nc(Nc2cccc(Cl)c2)nc(Oc2cc(=O)oc3ccccc23)n1 | 56 µg/mL |
| FC(F)(F)c1ccc2c(c1)nc(CCl)c1cccn12 | 18 µM |
| COC(=O)/C=C1\S/C(=N/N=C/c2ccc(OC)cc2)NC1=O | 72.1 µM |
| CC(C)c1c(C(=O)c2cc(C(F)(F)F)cc(C(F)(F)F)c2)n(Cc2ccncc2)c(=O)[nH]c1=O | 44.9 µg/mL |
| CCCC(C(=O)O)c1c(C)nc2sc3c(c2c1C(C)(C)C)CCCC3 | 131 µM |
| COc1cc2nc(S(=O)CC(=O)Nc3ccc(C)cc3)nc(Nc3c(Cl)cc(/C=C/C#N)cc3Cl)c2cc1OC | 32.2 µM |
| CC1=C(C(=O)Nc2ccc(F)cc2)C2=NN=C(N)C2C(=O)N1 | 83.9 µg/mL |
| O=C(CCCN1C(=O)c2ccccc2C1=O)NC(=S)NC(Cc1ncc[nH]1)C(=O)O | 47.26 µM |
| Cc1cc(C)cc(Sc2c(C(C)C)c(=O)[nH]c(=O)n2Cc2ccc3c(c2)C(=O)c2ccccc2C3=O)c1 | >100 µg/mL |
| CC1=C(C(=O)Nc2ccc(Cl)c(Cl)c2)C2=NN=C(N)C2C(=O)N1 | 62.9 µg/mL |
| S=C(Nc1nc2ccccc2s1)Nc1ccccc1Br | 1.6 µM |
| FC(F)(F)c1cccc(-n2c(Cc3ccccn3)n[nH]c2=S)c1 | >100 µM |
| Cc1cc(C(C)(C)C)ccc1NC(=S)Nc1nc2ccccc2s1 | 8.6 µM |
| S=C(NCc1ccco1)Nc1ccccc1Cl | ≥100 µM |
| CCc1c(Oc2cc(C)cc(C)c2)n(Cc2ccccn2)c(=O)[nH]c1=O | >100 µg/mL |
| CCOC(=O)CNc1nc(NC(=O)Nc2ccc(OC)cc2)nc(Oc2cc(=O)oc3ccccc23)n1 | 85.9 µg/mL |
| Cc1ccc(NC(=S)NCc2ccco2)cc1Cl | 100 µM |
| CCOC(=O)CNc1nc(Nc2ccccc2)nc(Oc2cc(=O)oc3ccccc23)n1 | 61.15 µg/mL |
| CCc1c(C(=O)c2cc(C)cc(C)c2)n(Cc2ccnc(C)c2)c(=O)[nH]c1=O | 14.3 µg/mL |
| COc1ccc(NC(=O)Nc2nc(NCCc3ccc(OC)c(OC)c3)nc(Oc3cc(=O)oc4ccccc34)n2)cc1 | 61.6 µg/mL |
| CCOC(=O)CCC(NC(=O)c1ccc(OCc2nc3cc(C(F)(F)F)ccc3n3cccc23)cc1)C(=O)OCC | 68 µM |
| Clc1cccc(Nc2nnc(Cc3ccccn3)s2)c1 | >100 µM |
| COc1ccc(Nc2nn3c(=O)c4ccccc4nc3s2)cc1 | >99.15 µg/mL |
| O=c1[nH]c(=O)n(COCc2ccccc2)c2c1COC2c1ccccc1 | >100 µM |
| Cc1cc(C)cc(Oc2c(C(C)C)c(=O)[nH]c(=O)n2Cc2ccncc2)c1 | 15.8 µg/mL |
| CCOC(=O)CNc1nc(NC(=O)Nc2ccccc2Cl)nc(Oc2cc(=O)oc3ccccc23)n1 | >78.8 µg/mL |
| S=c1[nH]nc(Cc2ccccn2)n1-c1cccc(Cl)c1 | >100 µM |
| CC1=C(C(=O)Nc2cccc(Cl)c2Cl)C2=NN=C(N)C2C(=O)N1 | 19.8 µg/mL |
| CCc1c(C(=O)c2cc(C)cc(C)c2)n(CC2CO2)c(=O)[nH]c1=O | >100 µg/mL |
| O=C(O)CCC(NC(=O)c1ccc(Nc2nc3ccccc3n3cccc23)cc1)C(=O)O | >100 µM |
| COC(=O)/C=C1\S/C(=N/N=C/c2ccc(Cl)cc2)NC1=O | 4.23 µM |
| O=[N+]([O-])c1ccc(NC(=S)Nc2nc3ccccc3s2)cc1 | >100 µM |
| COc1cc2nc(S(=O)CC(=O)Nc3cccc(C(F)(F)F)c3)nc(Nc3c(Cl)cc(/C=C/C#N)cc3Cl)c2cc1OC | 21.8 µM |
| FC(F)(F)c1cccc(Nc2nnc(Cc3ccccn3)s2)c1 | 70.6 µM |
| CCOC(=O)c1ccc(OCc2nc3ccccc3n3cccc23)cc1 | >100 µM |
| O=c1c2ccccc2nc2sc(Nc3ccccc3)nn12 | >35.3 µg/mL |
| Cc1cn([C@H]2C[C@H](N=[N+]=[N-])[C@@H](COP(=O)(O)CO)O2)c(=O)[nH]c1=O | 2800 µM |
| N#Cc1ccc(N2C(=O)CS/C2=N\c2nc3ccccc3s2)cc1 | 100 µM |
| Cc1ccc(Cl)c(-n2c(Cc3ccccn3)n[nH]c2=S)c1 | >100 µM |
| Cc1cc(C)cc(Oc2c(C(C)C)c(=O)[nH]c(=O)n2Cn2nnc3ccccc32)c1 | >100 µg/mL |
| Nc1ccn(C23C=C[C@@H](CO)[C@@H]2C3)c(=O)n1 | 61.8 µg/mL |
| S=C(Nc1ccccc1Cl)NC1CCN(Cc2ccccc2)CC1 | 56 µM |
| Cc1cn([C@H]2C[C@H](N=[N+]=[N-])[C@@H](CO)O2)c(=O)[nH]c1=O | >25 µM |
| Cc1cn([C@H]2C[C@H](N=[N+]=[N-])[C@@H](COP(=O)(O)C(Cl)(Cl)Cl)O2)c(=O)[nH]c1=O | 1340 µM |
| CCOCn1c2c(c(=O)[nH]c1=O)COC2c1ccccc1 | 100 µM |
| COc1cc2nc(SCC(=O)Nc3ccc(Cl)cc3)nc(Nc3c(Cl)cc(/C=C/C#N)cc3Cl)c2cc1OC | >29.5 µM |
| COC(=O)C(NC(=O)CCCN1C(=O)c2ccccc2C1=O)C(C)O | 37.82 µM |
| COc1cc2nc(S(=O)CC(=O)Nc3cccc(F)c3)nc(Nc3c(Cl)cc(/C=C/C#N)cc3Cl)c2cc1OC | 9.55 µM |
| Cc1ccc(Cl)cc1NC(=S)NC1CCN(Cc2ccccc2)CC1 | 37 µM |
| Cc1c(C(C)c2c(F)cccc2F)nc(NN2CCCCCC2)[nH]c1=O | >72 µM |
| O=C(O)c1ccc(Nc2nc3cc(C(F)(F)F)ccc3n3cccc23)cc1 | 15 µM |
| CCOC(=O)CNc1nc(NC(=O)Nc2ccccc2OC)nc(Oc2cc(=O)oc3ccccc23)n1 | >125 µg/mL |
| COc1cc2nc(S(=O)CC(=O)Nc3cccc(Cl)c3)nc(Nc3c(Cl)cc(/C=C/C#N)cc3Cl)c2cc1OC | 68.9 µM |
| Cc1cc(Cl)cc(C(=O)c2c(C(C)C)c(=O)[nH]c(=O)n2Cc2ccnc(C)c2)c1 | 93.75 µg/mL |
| Cc1ccnc2c1NC(=O)c1cccnc1N2C1CC1 | >4 µg/mL |
| Cc1cc(C)cc(Sc2c(C(C)C)c(=O)[nH]c(=O)n2Cc2cc(C(F)(F)F)cc(C(F)(F)F)c2)c1 | >100 µg/mL |
| COC(=O)C(CO)NC(=O)CCCN1C(=O)c2ccccc2C1=O | 96.11 µM |
| CC1=C(C(=O)Nc2ccccc2C)C2=NN=C(N)C2C(=O)N1 | 96.1 µg/mL |
| Cc1cn([C@H]2C[C@H](N=[N+]=[N-])[C@@H](COP(=O)(O)C(N)=O)O2)c(=O)[nH]c1=O | 2700 µM |
| Cc1ccc(Nc2nnc(Cc3ccccn3)s2)cc1Cl | 47 µM |
| COc1ccc(CCNc2nc(NC(=O)Nc3ccc(Cl)cc3)nc(Oc3cc(=O)oc4ccccc34)n2)cc1OC | 35.43 µg/mL |

Again, the opening 4 rows:

smiles | result
CSCCC(NC(=S)NC(=O)CCCN1C(=O)c2ccccc2C1=O)C(=O)O | 78.22 µM
Cn1c2ccccc2c2c1cc(C#N)c(=O)n2-c1ccc([N+](=O)[O-])cc1 | >32 µM
Cc1cc(C)cc(C(=O)c2c(C(C)C)c(=O)[nH]c(=O)n2Cc2cc(C(F)(F)F)cc(C(F)(F)F)c2)c1 | 8.4 µg/mL
CCOC(=O)CNc1nc(Nc2cccc(C)c2)nc(Oc2cc(=O)oc3ccccc23)n1 | 65.28 µg/mL